The record followed here is US4835100A (priority 1986, dated 1989).

In the series the test system is monoclonal antibody (2F5). In kind it is binding, mouse.

As to `COc1cc2c(c3oc(=O)c4c(c13)CCC4=O)[C@@H]1C=CO[C@@H]1O2` [Aflatoxin B1, aflatoxin B1], the detection limit amounted to 0.5 ng/mL and the limit of detection was found to be 25 pg/assay.
